From PubChem BioAssay AID485364 (National Center for Advancing Translational Sciences (NCATS), 2010)
This is a selection; strong and weak results do not stand in their true shares. Some salts and complexes are drawn in separate pieces, as the source files them; their charges need not balance. Activity calls are given as the source filed them. The call rests on the fitted dose curve; in most records, active means well fitted inhibition curve with a large enough effect; inconclusive means small, poorly fitted or top-dose-only effect; inactive means no such curve, though single readings can be large or run the other way.

Each compound was assayed against Schistosoma mansoni thioredoxin glutathione reductase (TGR) (UniProt Q962Y6) (assay: qHTS Assay for the Inhibitors of Schistosoma Mansoni Peroxiredoxins). Conditions: purified TGR, DTNB reduction, TNB absorbance 405 nm; series mostly up to 114 µM; activity change, negative = inhibition: at the top concentration.
Excerpt: Schistosomiasis is a major neglected tropical disease that currently affects over 200 million. It is caused by different species of flatworms, such as Schistosoma mansoni. Over the last century, drugs to treat the disease have evolved from potassium antimonyl tartrate, artemisinin, oxamniquine, to praziquantel, with praziquantel remaining the universally-used single drug of choice over the past three decades. However, transmission rates have changed little with praziquantel, and there is evidence for the development of drug resistant parasites. Because there is currently no suitable alternative therapy available, there is an urgent need to identify new targets and drugs for schistosomiasis treatment. Thioredoxin glutathione reductase (TGR), one uniquely positioned S. mansoni enzyme, has been identified as a major component of the worms' distinct and compressed antioxidant "firewall". TGR is a multifunctional enzyme that catalyzes the interconversion between reduced and oxidized forms of both glutathione (GSH) and thioredoxins, thus making it an attractive new antiparasitic target. Recently, a quantitative high-throughput screen of the NIH Molecular Libraries Small Molecule Repository (MLSMR, ~71K at the time of the screen in 2007) was performed using an assay that targeted both TGR and peroxiredoxin2 (Prx2, an H2O2-reducing enzymatic component of the S. mansoni redox "firewall") by following the decrease of NADPH fluorescence. […] Additional mechanistic link between exogenous NO donation and parasitic injury for the oxadiazole-2-oxide class of compounds was also expanded and better defined. Although the screen addressed both TGR and Prx2, the assay required post-screen target deconvolution for further characterization of the actives. In addition, the fluorescence assay was also subject to fluorescence interference from compound library members. We have developed a 1536-well-based kinetic HTS assay to address TGR alone. The assay followed the reduction of 5, 5'-dithiobis (2-nitrobenzoic acid) (DTNB) (Ellman's reagent) by NADPH and measured the increase in absorbance at 412 nm of the reaction product, TNB. […] This assay format can be used to screen the current MLSMR collection (with >300K compounds available) to find novel TGR inhibitors. Furoxan is a good choice to serve as a positive control in the primary HTS assay.
Three microliters of reagents (100 uM NADPH and 20 nM TGR or 100 uM NADPH as no-enzyme control) were dispensed into 1,536-well black clear-bottomed plates. Compounds (23 nL) were transferred via Kalypsys pin tool equipped with 1536-pin array (10 nL slotted pins, V&P Scientific, San Diego, CA). The plates were then be incubated for 15 min at room temperature, and 1 uL aliquot of 500 uM NADPH were added, immediately followed by a 1 uL aliquot of 15 mM DTNB to start the reaction. The plate was transferred to a ViewLux high-throughput CCD imager (Perkin-Elmer, Wellesley, MA) where kinetic measurements of the TNB absorbance were acquired using a 405 excitation filter. Throughout the screen, reagent bottles and all liquid lines were made light-tight to minimize reagent degradation. All screening operations were performed on a fully integrated robotic system (Kalypsys, San Diego, CA) containing one RX-130 and two RX-90 anthropomorphic robotic arms (Staubli, Duncan, SC). Library plates were screened starting from the lowest and proceeding to the highest concentration, and a "double-dipping" step of the highest concentration was required to access higher concentrations of compounds. Vehicle-only plates, with DMSO being pin-transferred to the entire column 5-48 compound area, were inserted uniformly at the beginning and the end of each library in order to monitor for and record any shifts in the background, which can be affected by reagent dispensers or loss in enzyme activity overtime. […]
Further: nearly all actives have a fitted effect of over 60% in size.
On the % scale 0 is the no-effect control and ±100 the full control effect; potency means the concentration at half of the fitted maximal effect.

SMILES | activity change, negative = inhibition | Potency
O=C(NCC1(N2CCCCC2)CCCCC1)c1cncc(Br)c1 | inactive: 6.04% | –
COc1ccc2c(c1O)-c1c(O)c(OC)cc3c1[C@H](C2)[N+](C)(C)CC3.O=[N+]([O-])c1cc([N+](=O)[O-])c([O-])c([N+](=O)[O-])c1[O-] | inactive: -28.2% | –
CCCOc1ccc(C(=O)NCC2(N(C)C)CCCCC2)cc1OC | inactive: 0% | –
O=C(NCC1(N2CCOCC2)CCCCC1)c1ccccc1Br | inactive: 0.468% | –
CCCCOc1ccccc1C(=O)NCC1(N2CCOCC2)CCCCC1 | inactive: -5% | –
CN(C)c1cccc(C(=O)NCC2(N3CCCCC3)CCCCC2)c1 | inactive: 1.77% | –
O=[N+]([O-])c1cc([N+](=O)[O-])c(OC2CCCCC2O)c([N+](=O)[O-])c1 (configuration not stated) | inactive: -25.1% | –
COc1ccc(CN(CCCl)CCCl)cc1Cl | inactive: 9.28% | –
CC(C)c1ccc(NC2CCN(C(=O)OC(C)(C)C)CC2)cc1 | inactive: -0.823% | –
COc1cc(OC)c(C(=O)NCC2(N(C)C)CCCCC2)cc1OC | inactive: 0% | –
O=C(NCC1(N2CCCCC2)CCCCC1)c1cccc(C(F)(F)F)c1 | inactive: -4.32% | –
CCCOc1cccc(C(=O)NCC2(N3CCOCC3)CCCCC2)c1 | inactive: -3.08% | –
O=[N+]([O-])c1cc([N+](=O)[O-])c(NCC2CCS(=O)(=O)C2)c([N+](=O)[O-])c1 (configuration not stated) | inactive: -32.3% | –
COc1ccc(NC2CCN(C(=O)OC(C)(C)C)CC2)cc1 | inactive: 5.25% | –
CC(C)c1ccc(C(=O)NCC2(N3CCOCC3)CCCCC2)cc1 | inactive: 0.407% | –
CN1CCN(CCOC(=O)C(O)(c2ccccc2)c2ccccc2)CC1 | inactive: -9.58% | –
O=C(NCC1(N2CCOCC2)CCCCC1)c1cc(=O)[nH]c2ccccc12 | inactive: -0.185% | –
COc1cc(C(=O)NCC2(N3CCCCC3)CCCCC2)ccc1OC(F)F | inactive: -15.2% | –
O=C(NCC1(N2CCCCC2)CCCCC1)c1ccc(OC(F)F)cc1 | inactive: -5.78% | –
O=C(NCC1(N2CCCCC2)CCCCC1)c1cccc([N+](=O)[O-])c1 | inactive: 4.11% | –
CCOc1ccc(C(=O)NCC2(N3CCOCC3)CCCCC2)cc1 | inactive: 50% | –

SMILES | activity change, negative = inhibition | Potency
CSc1ccc(C(=O)NCC2(N3CCOCC3)CCCCC2)cc1 | inactive: -1.74% | –
N#CC1(Nc2ccccc2)CCN(CCc2ccccc2)CC1 | inactive: 8.77% | –
CCN1CCC(Nc2ccc(Cl)cc2)CC1 | inactive: -24.8% | –
Cc1ccc(OCC(C)C)c(CN(CCCl)CCCl)c1 | – | active: 10 µM
COc1cc(C(=O)NCC2(N(C)C)CCCCC2)ccc1OC(F)F | inactive: -2.67% | –
CCOC(=O)N1CCC(Nc2cccc(C)c2)CC1 | inactive: -2.47% | –
CCOc1ccc(C)cc1CN(CCCl)CCCl | – | active: 7.94 µM
O=C(NCC1(N2CCOCC2)CCCCC1)c1ccc(Cl)cc1 | inactive: -7.45% | –
CCOC(=O)N1CCC(Nc2ccc(F)cc2)CC1 | inactive: 1.95% | –
COc1ccc(NC2CCN(CCc3ccccc3)CC2)c(OC)c1 | inactive: -25% | –
O=C(NCC1(N2CCCCC2)CCCCC1)c1ccc(F)cc1 | inactive: -7.2% | –
CCCCOc1ccc(C(=O)NCC2(N3CCOCC3)CCCCC2)cc1 | inactive: -7.43% | –
COc1ccccc1C(=O)NCC1(N2CCOCC2)CCCCC1 | inactive: 1.67% | –
O=C(NCC1(N2CCOCC2)CCCCC1)c1cc2ccccc2o1 | inactive: -12.2% | –
Cc1cc(C)cc(N(C(=O)c2ccccc2)C2CCN(C(=O)OC(C)(C)C)CC2)c1 | inactive: -20.5% | –
O=C(NCC1(N2CCCCC2)CCCCC1)c1ccc(Cl)nc1 | inactive: -0.38% | –
CCOC(=O)N1CCC(Nc2ccc(OC)cc2)CC1 | inactive: -16.3% | –
COc1ccc(Cl)cc1C(=O)NCC1(N2CCOCC2)CCCCC1 | inactive: -8.33% | –
O=C(OC1CN2CCC1CC2)C1c2ccccc2Oc2ccccc21 (configuration not stated) | inactive: 3.18% | –
O=C(NCC1(N2CCCCC2)CCCCC1)c1ccc(Cl)s1 | inactive: -0.0951% | –
N#CC1(Nc2ccccc2)CCN(Cc2ccccc2)CC1 | inactive: 8.97% | –

SMILES | activity change, negative = inhibition | Potency
O=C(NCC1(N2CCCCC2)CCCCC1)c1cccs1 | inactive: 3.54% | –
O=C(NCC1(N2CCCCC2)CCCCC1)c1ccc(=O)[nH]c1 | inactive: -1.75% | –
COc1ccc(C(=O)NCC2(N3CCCCC3)CCCCC2)c(OC)c1OC | inactive: 11.2% | –
CC(C)(C)OC(=O)N1CCC(N(C(=O)c2ccccc2)c2ccc(F)cc2)CC1 | inactive: 2.15% | –
CSc1ccccc1C(=O)NCC1(N2CCCCC2)CCCCC1 | inactive: -26% | –
CCC(CO)(C(=O)OC1CN2CCC1CC2)c1ccccc1 (configuration not stated) | inactive: 6.57% | –
COc1cccc(C(=O)N(c2cc(C)cc(C)c2)C2CCN(C(=O)OC(C)(C)C)CC2)c1 | inactive: 1.4% | –
COc1cc(C(=O)NCC2(N3CCOCC3)CCCCC2)cc(OC)c1OC | inactive: 5.2% | –
COc1cc(OC)cc(C(=O)NCC2(N3CCOCC3)CCCCC2)c1 | inactive: 11.9% | –
CCCOc1ccc(C)cc1CN(CCCl)CCCl | – | active: 14.1 µM
CN1CCC(Nc2ccc(Cl)cc2)CC1 | inactive: -5.95% | –
CN1CCC(Nc2ccc(F)c(Cl)c2)CC1 | inactive: 0% | –
CCOc1ncccc1C(=O)NCC1(N2CCOCC2)CCCCC1 | inactive: 6.53% | –
CCCOc1ccc(C(=O)NCC2(N(C)C)CCCCC2)cc1 | inactive: 7.91% | –
O=C(O)C1(Nc2ccccc2)CCN(Cc2ccccc2)CC1 | inactive: -21.1% | –
CC(C)(C)OC(=O)N1CCC(Nc2ccccc2)CC1 | inactive: 7.71% | –
CCN1CCC(Nc2cccc(F)c2)CC1 | inactive: 1.98% | –
CN(C)c1ccc(C(=O)NCC2(N3CCCCC3)CCCCC2)cc1 | inactive: -0.706% | –
CC(C)(C)c1ccc(C(=O)NCC2(N3CCOCC3)CCCCC2)cc1 | inactive: -4.8% | –
O=C(NCC1(N2CCCCC2)CCCCC1)c1ccco1 | inactive: -8.02% | –
Cc1ccccc1C(=O)NCC1(N(C)C)CCCCC1 | inactive: 0.357% | –

SMILES | activity change, negative = inhibition | Potency
COc1cc(OC)cc(C(=O)NCC2(N3CCCCC3)CCCCC2)c1 | inactive: 13.2% | –
CN(C)C1(CNC(=O)c2ccc(C(C)(C)C)cc2)CCCCC1 | inactive: 1.76% | –
Fc1ccccc1NC1CCN(Cc2ccccc2)CC1 | inactive: -5.57% | –
Cc1ccc(C(=O)NCC2(N3CCCCC3)CCCCC2)o1 | inactive: 5.32% | –
CCCN1CCC(Nc2cc(OC)cc(OC)c2)CC1 | inactive: 0% | –
O=C(NCC1(N2CCOCC2)CCCCC1)c1ccccc1 | inactive: 0.944% | –
c1ccc(CN2CCC(Nc3ccccc3)CC2)cc1 | inactive: 0.197% | –
CN(C)C1(CNC(=O)c2cccc(C#N)c2)CCCCC1 | inactive: -17.4% | –
CC(C)(C)OC(=O)N1CCC(N(C(=O)c2ccccc2)c2ccc(Cl)cc2)CC1 | inactive: -14.6% | –
O=C(NCC1(N2CCOCC2)CCCCC1)c1ccc([N+](=O)[O-])cc1 | inactive: -4.53% | –
O=C(NCC1(N2CCOCC2)CCCCC1)c1ccccc1[N+](=O)[O-] | inactive: -0.549% | –
N#Cc1ccc(C(=O)NCC2(N3CCCCC3)CCCCC2)cc1 | inactive: -3.45% | –
CCOC(=O)C(CC)C1=NC(C)(C)Cc2ccccc21.O=[N+]([O-])c1cc([N+](=O)[O-])c(O)c([N+](=O)[O-])c1 (configuration not stated) | inactive: 1.14% | –
N/C(=N\O)c1c(N)no[n+]1[O-] | inactive: 1.38% | –
CCOC(=O)N1CCC(Nc2ccc(C)cc2)CC1 | inactive: -18.5% | –
O=C(O)c1cccc(Nc2c([N+](=O)[O-])cc([N+](=O)[O-])cc2[N+](=O)[O-])c1 | inactive: -23.1% | –
O=C(OC1CN2CCC1CC2)C1c2ccccc2C=Cc2ccccc21 (configuration not stated) | inactive: -11.1% | –
CCc1cc(C(=O)NCC2(N3CCCCC3)CCCCC2)sc1C | inactive: 0.205% | –
O=C(NCC1(N2CCOCC2)CCCCC1)c1cc(Br)ccc1Cl | inactive: -23.3% | –
